Measurements reported in paper PMC5013675, “Nucleotide binding by the widespread high-affinity cyclic di-GMP receptor MshEN domain” (Nature Communications, 2016).

Protein sequences, listed by entry. Tags and fused reporters are not part of them. Residues count along the entry.
UniProt Q9KUV7, 1-145 limits assumed: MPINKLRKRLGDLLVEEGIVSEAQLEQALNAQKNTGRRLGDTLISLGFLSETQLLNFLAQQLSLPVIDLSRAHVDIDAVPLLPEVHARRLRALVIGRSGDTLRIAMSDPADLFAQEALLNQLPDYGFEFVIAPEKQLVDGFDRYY

Molecular target: VcMshEN1-145 (wild type) (Vibrio cholerae, UniProt Q9KUV7)
Assay: ITC titration of wild-type VcMshEN with cyclic dinucleotides
Format: binding
Settings: relative to wild type

Compound: Nc1nc2c(ncn2[C@@H]2O[C@@H]3COP(=O)(O)O[C@H]4[C@@H](O)[C@H](n5cnc6c(=O)[nH]c(N)nc65)O[C@@H]4COP(=O)(O)O[C@H]3[C@H]2O)c(=O)[nH]1 [c-di-GMP, Cyclic dimeric GMP]
- Fold change of KD: 1.0
